Laboratory results as given in patent publication US11524046B2, “Biofilm prevention, disruption and treatment with bacteriophage lysin” (priority 2012, dated 2022).

System: MRSA biofilms grown on catheters (strain ATCC BAA-42)
Experiment: Catheter biofilm residual CFU, BacTiter-Glo luciferase estimate
Conditions: 1×MIC (32 ug/mL)

B1: PlySs2: bacteriophage lysin derived from Streptococcus suis, amino acid sequence of FIG. 5 / SEQ ID NO: 1; CHAP and SH3 domains (protein, listed as Streptococcus suis)
chain: MTTVNEALNNVRAQVGSGVSVGNGECYALASWYERMISPDATVGLGAGVGWVSGAIGDTISAKNIGSSYNWQANGWTVSTSGPFKAGQIVTLGATPGNPYGHVVIVEAVDGDRLTILEQNYGGKRYPVRNYYSAASYRQQVVHYITPPGTVAQSAPNLAGSRSYRETGTMTVTVDALNVRRAPNTSGEIVAVYKRGESFDYDTVIIDVNGYVWVSYIGGSGKRNYVATGATKDGKRFGNAWGTFK
With B1 the “time by which CFU values are at the limit of detection (100 CFU/ml)” value was ≤ 60 min.
